EP2177496A1, “New analogs of polysphorin and uses thereof for treating or preventing malaria” (Assistance Publique - Hôpitaux de Paris, priority 2008, dated 2010)

How the values were obtained:
Conditions in all cases: selectivity index = ratio of TC50 to IC50
P. yoelii = assay: In vitro activity against hepatic stage of P. yoelii (sporozoite-infected HepG2/CD81 cells or rodent hepatocytes, liver-schizont count); format: cell-based, P. yoelii (265 BY strain)
Experimental: (§1) Activity against pre-erythrocytic stages was tested by in vitro assays with the human parasite P. falciparum (NF54 strain) and the rodent parasite P. yoelii (265 BY strain). The rodent parasite P. yoelii is produced in the insectarium of the INSERM Unit U511 and human parasite P. falciparum was obtained from collaboration with R. Sauerwein.
(§2) Sporozoites were obtained from infected salivary glands of Anopheles stephensi mosquitoes fed on continuous culture of P. falciparum (coll R. Sauerwein, Netherlands), or on P. yoelii parasitized mice (insectarium of the INSERM Unit U511). After aseptic dissection, salivary glands were homogenized in a glass grinder and diluted in culture medium or sterile phosphate-buffered saline (PBS).
(§3) Primary cultures of rodent or human hepatocytes were prepared from liver segments taken from mouse or from adult patients undergoing partial hepatectomy. Hepatocytes were isolated using the two-step enzymatic perfusion technique (Guguen-Guillouzo et al., 1982) and were further purified on a discontinuous Percoll gradient. Then, hepatocytes were seeded in eight-chamber Lab-Tek permanox slides at a density of 1,4x10^5 cells per cm^2, and maintained under culture conditions as described in Mahmoudi et al., 2003. After complete adherence to culture plates, rodent and human hepatocytes were infected with P. yoelii or P. falciparum sporozoites, respectively, aseptically dissected from mosquitoes' salivary glands, as described above. Hepatocytes were inoculated with 6x10^4 sporozoites per Lab-Tek well. Compounds to be tested were added at the time of infection and/or after penetration of the sporozoites and at different concentrations (three wells per dilution). Every day, medium was replaced by fresh medium containing or not different concentrations of the molecules to be tested. Cultures were arrested at 48 hours (P. yoelii) or 6 days (P. falciparum) and cells were fixed with methanol. Liver-schizonts were quantified by microscopic examination after fluorescent labeling using a primary mouse antibody directed against Plasmodium heat shock protein-70 (Renia et al., 1990) produced in INSERM unit 511 and a secondary goat anti-mouse antibody conjugated with fluorescein isothiocyanate (Sigma Aldrich).

P. falciparum [1] = assay: In vitro activity against hepatic stage of P. falciparum in primary human hepatocytes (liver-schizont count); format: cell-based, P. falciparum (NF54 strain)
Experimental: as §1, §2
as §3, with “Every day, medium was replaced by fresh medium containing or not different concentrations of the molecules to be tested. Cultures were arrested at 48 hours (P. yoelii) or 6 days (P. falciparum) and cells were fixed with methanol.” left out

P. falciparum [2] = assay: In vitro activity against erythrocytic stage of P. falciparum ([3H]-hypoxanthine incorporation); format: cell-based, chloroquine-sensitive (3D7w) clone of P. falciparum
Experimental: After 48 hours, [^3H]-hypoxanthine (Amersham) was added to each well and then plates were incubated for 24 hours. Parasites were harvested, and incorporation of radioactivity was determined by liquid scintillation counting (Beckman LS1701, les Ulis, France). The counts-per-minute (cpm) was adjusted relative to controls to obtain percentages of inhibition. […] This estimation was obtained with IC50 estimator software. For the assay, the parasites were synchronized by D-sorbitol treatment.

With `COc1cccc(OC)c1OC(C)C(O)c1ccc2c(c1)OC(F)(F)O2` (stereo not shown) [drawing 70] the “SI Hepatic stage (rodent) P. yoelii” value (P. yoelii) was 2.73.

For `COc1cccc(OC)c1OC(C)C(O)c1ccc2c(c1)OC(F)(F)O2` (stereo not shown) [drawing 71], the “SI Hepatic stage (rodent) P. yoelii” value (P. yoelii) was 2.62.

In the case of `COc1cc(C(O)C(C)Oc2c(OC)cccc2OC)cc(OC)c1OC` (stereo not shown) [drawing 74], the “SI Hepatic stage (rodent) P. yoelii” value (P. yoelii) is reported as 2.02.

In the case of `COc1cc(C(O)C(C)Oc2c(OC)cccc2OC)cc(OC)c1OC` (stereo not shown) [drawing 75], the “SI Hepatic stage (rodent) P. yoelii” value (P. yoelii) is reported as 0.05.

In the case of `COc1cc(C(O)C(C)Oc2c(OC)cc(C)cc2OC)cc(OC)c1OC` (stereo not shown) [drawing 76], the “SI Hepatic stage (rodent) P. yoelii” value (P. yoelii) is reported as 0.94.

For `COc1cc(C(O)C(C)Oc2c(OC)cc(C)cc2OC)cc(OC)c1OC` (stereo not shown) [drawing 77], the “SI Hepatic stage (rodent) P. yoelii” value (P. yoelii) was 11008 and the “SI Hepatic stage (human) P. Falciparum” value (P. falciparum [1]) was 328.

With `COc1cc(C(O)C(C)Oc2c(OC)cc(-c3ccccc3)cc2OC)cc(OC)c1OC` (stereo not shown) [drawing 78] the “SI Hepatic stage (rodent) P. yoelii” value (P. yoelii) was over 14, the “SI Hepatic stage (human) P. Falciparum” value (P. falciparum [1]) was 2500 and the “SI Erythrocytic stage P. falciparum” value (P. falciparum [2]) was 4.34.

With `COc1cc(C(O)C(C)Oc2c(OC)cc(-c3ccccc3)cc2OC)cc(OC)c1OC` (stereo not shown) [drawing 79] the “SI Hepatic stage (rodent) P. yoelii” value (P. yoelii) was over 13.85, the “SI Hepatic stage (human) P. Falciparum” value (P. falciparum [1]) was 7142 and the “SI Erythrocytic stage P. falciparum” value (P. falciparum [2]) was 2.5.
